From patent publication US20260069689A1, “ANTI-SARS-COV-2-SPIKE GLYCOPROTEIN ANTIBODIES AND ANTIGEN-BINDING FRAGMENTS” (published 2026)

Columns and labels:
Assay in all cases: cell-based or functional assay
[1] = biological target: SARS-CoV-2 S protein variant BA.1 (Omicron) (SARS-CoV-2)
[2] = biological target: SARS-CoV-2 S protein variant BA.1.1 (Omicron) (SARS-CoV-2)
[3] = biological target: SARS-CoV-2 S protein variant BA.2 (Omicron) (SARS-CoV-2)
[4] = biological target: SARS-CoV-2 S protein variant BA.2.12.1 (Omicron) (SARS-CoV-2)

Substance mAb10933 (Casirivimab) (antibody) has a Fold Change in IC50 over Ref Virus [1] of over 1730 fold, a Fold Change in IC50 over Ref Virus [2] of over 1340 fold and a Fold Change in IC50 over Ref Virus [3] of 462 fold. It also gave an IC50 [3] of 6.8 nM, an IC90 [3] of 80.4 nM and a Fold Change in IC50 over Ref Virus [4] of over 702 fold.
